ChEMBL document CHEMBL1212795, “Transferable quinolone resistance in Vibrio cholerae” (2010)

Tests used:
[1] = tested on: Escherichia coli; conditions: J53 SXT2
[2] = tested on: Escherichia coli; conditions: J53 TET2

For GENTAMICIN, the MIC [1] was 0.5 µg/mL and the MIC [2] was 0.5 µg/mL.
